## Results of single-concentration screens

Each number is a percent effect as filed.
The record does not define 0% and 100%; most values in the screen are far below 50% and negative numbers occur (in some assays of this library far below -100).
The entries come from a sample that favours strong results.

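Whole-cell growth test on Mycobacterium tuberculosis, read after 4 days in a medium based on cholesterol and the lipid DPPC; the read-out is not stated. Concentration: 500 µM. Higher reads as more growth inhibition (inferred: compounds with an IC50 in retests scored well above the rest). Size under these conditions: about 18,000 compounds, about 900 of them at 50% or above in at least one test.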

SMILES	percent effect
CCCS(=O)(=O)N1C[C@H](c2ccc(OC)cc2)[C@@H](N)C1	17.52
CC(C)C[C@H](N)C(=O)N(C)c1ccccc1	28.77
COc1ccc(OCCCS(N)(=O)=O)cc1	20.79
C[C@H](NC(=O)c1cc(C(F)(F)F)ccc1F)C(N)=O	-11.5
COc1ccc(C(=O)N2CCNCC2)cc1OC	-2.193
Cc1cc(C(=O)NCCCO)c2ccc(F)cc2n1	-9.18
Nc1c[nH]nc1-c1ccccn1	22.54
CN(C)S(=O)(=O)N(CCO)Cc1ccc(Cl)c(Cl)c1	68.2
O=C(CSc1cnn[nH]1)Nc1ccc(Cl)cn1	87.14
COCCCN(C)S(=O)(=O)c1ccc(Br)cn1	56.18
CCSc1cc(Cl)ccc1C(=O)NCCC(N)=O	-0.693
Cc1ccc(NC(=O)C(C)N)cc1 (stereo not shown)	-1.696
O=C(c1cnn(-c2ccccc2)c1)N1CCCCC1	-12.49
CNC(=O)CN1CCCC1COc1ccccc1 (stereo not shown)	19.45
Cc1cc(NC(=O)CN(C)Cc2ccccc2)no1	77.85
O=C(Nc1cc(F)cc(F)c1)c1ccncc1	1.783
Cc1ccc2ncc(CO)cc2c1	8.514
COC(CNC(=O)NCC(C)(C)O)c1cccc(Cl)c1 (stereo not shown)	-7.01
CC1CCN(CCC(=O)Nc2sccc2C(N)=O)CC1	33.21
CS(=O)(=O)NCCCNC(=O)c1cn2ccccc2n1	-2.967
Cc1ccsc1CN1CCc2n[nH]c(=O)n2CC1	14.41
CCC(C)(C)C(=O)NCC(C)(C)N1CC[S+]([O-])CC1	-11.12
CCC[C@H]1CN(c2nc(C)ccc2C(=O)O)C[C@@H]1N	-4.985
O=c1[nH]c2cc(Cl)ccc2c(=O)n1CC1CCCO1 (stereo not shown)	4.66
CC(=O)c1cc(C(=O)N2CCCCC2)c(=O)[nH]c1C	1.434
Cc1[nH][nH]c(=O)c1CCO	1.001
O=C(NCCNCc1ccccc1)c1ccco1	1.394
Nc1cnccc1OCc1ccccc1	11.03
CCc1ccc(S(=O)(=O)N2CC[C@@H](N)C2)cc1CC	52.4
NCC(=O)N1CCCC(CCc2ccc(F)cc2F)C1 (stereo not shown)	90.91
CC1(COC(=O)c2cccnc2)CCCO1 (stereo not shown)	-3.848
Cc1ccc(CN2CCNC(=O)CC2)c(Br)c1	23.26
CSc1cccc(NC(=O)N2CCC(O)(CO)C2)c1 (stereo not shown)	20.97
COc1cccc(CC2(O)CCNCC2)c1	-5.09
CN1CC(NCc2ccc(C#N)cc2)CC1=O (stereo not shown)	1.771
CC(CO)(NC(=O)NCc1ccncc1)C1CC1 (stereo not shown)	-4.853
NCCCn1ccnn1	-2.228
NC(Cc1ccccn1)c1cccnc1 (stereo not shown)	-13.38
Nc1cc(C2CCN(C(=O)Cc3ccsc3)CC2)no1	49.29
COCCNC(=O)c1cc2ccccc2[nH]1	16.61
CC(c1ccccn1)N(C)C(=O)c1nccnc1N (stereo not shown)	8.654
O=C(COc1ccc(F)cc1)Nc1ccon1	96.62
Cc1occc1C(=O)N1CCN(c2nccs2)CC1	8.246
COCCN1CCC(CNC(=O)c2coc(Br)c2)CC1	2.749
NC(=O)C1CCCCN1CC(=O)NC1CCCCC1 (stereo not shown)	-12.52
CCN(C)C(=O)Nc1cnns1	-3.586
CC(NC(=O)c1ccccc1Cl)C(=O)NC1CC1 (stereo not shown)	-6.947

Some entries from above, unchanged:

| SMILES | percent effect |
|---|---|
| `NC(=O)C1CCCCN1CC(=O)NC1CCCCC1` (stereo not shown) | -12.52 |
| `NCC(=O)N1CCCC(CCc2ccc(F)cc2F)C1` (stereo not shown) | 90.91 |
| `Cc1cc(NC(=O)CN(C)Cc2ccccc2)no1` | 77.85 |

Data taken from ChEMBL document CHEMBL3988442, “University of Dundee, Small-Polar-MMV Screening Library” (2021).